Data on one compound can be found in ChEMBL document CHEMBL1789904, “Imaging of Plasmodium liver stages to drive next-generation antimalarial drug discovery” (Science, 2011).

Some of the results follow. Results with a measured potency or affinity are listed apart.

This experiment deals with Plasmodium yoelii. Briefly: NOVARTIS: Antimalarial liver stage activity measured as reduction in Plasmodium yoelii schizont area in HepG2-A16-CD81 cells by immuno-fluorescence, and median schizont size at 10uM compound concentration. In kind it is functional, organism-based. The gist of the method:
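Host and parasite nuclei stained with Hoechst 33342, parasites with αPyHSP70 antibody; 25 images per well by high-content imaging; median parasite (schizont) area measured by automated image analysis, ~50 schizonts per experiment, two or more independent experiments.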

As for `CCCN(CCC)[P+](CC)(N(CCC)CCC)N(CCC)CCC`, the Schizont size worked out at 31.2 µM.
